Data reported in patent US20160298165A1 (priority 2013, published 2016).

Tested on: M. tuberculosis H37Rv
Assay: Growth curves / viability (CFUs) of treated M. tuberculosis cultures
Format: cell-based, Mycobacterium tuberculosis
Conditions: 4 mM compound combined with INH

Row | Compound | effect on killing / emergence of resistant population when combined with INH
1 | N[C@@H](CO)C(=O)O | did not increase the killing
2 | L-Methionine | did not increase the killing
3 | CC(=O)N[C@@H](CS)C(=O)O | did not prevent the emergence of a drug-resistant population
4 | N[C@H](CS)C(=O)O | the same effect
